The data set can be described thus: Scalar for adjusting in vitro IC50 to whole blood. The note with it: (100 - BM)/100 x 100/(100 - HPPB) x HWB.
Consider `CO[C@H]1O[C@@H]2O[C@@]3(C)CC[C@H]4[C@H](C)CC[C@@H]([C@H]1C)[C@@]24OO3` [ART, artemether], for which the “Scalar (adjusted)” value stood at 1.66. For `CCCCN(CCCC)CC(O)c1cc(Cl)cc2c1-c1ccc(Cl)cc1/C2=C/c1ccc(Cl)cc1` (stereo not drawn) [LF, lumefantrine] the value was 0.25; for `Clc1ccc2c(N3CCN(CCCN4CCN(c5ccnc6cc(Cl)ccc56)CC4)CC3)ccnc2c1` [PQ, piperaquine], 1.22.

For the origin of these results see publication PMC3546862, “Assessing the utility of an anti-malarial pharmacokinetic-pharmacodynamic model for aiding drug clinical development” (Malaria Journal, 2012).
